## HIV-1 5' UTR: effect of mutations on RNA dimer formation

Values reported by Ye et al. 2022 (doi:10.1038/s41594-022-00746-2).

RNA: 5' end of the HIV-1 NL4-3 genome, made in vitro. Positions 1-437 read:
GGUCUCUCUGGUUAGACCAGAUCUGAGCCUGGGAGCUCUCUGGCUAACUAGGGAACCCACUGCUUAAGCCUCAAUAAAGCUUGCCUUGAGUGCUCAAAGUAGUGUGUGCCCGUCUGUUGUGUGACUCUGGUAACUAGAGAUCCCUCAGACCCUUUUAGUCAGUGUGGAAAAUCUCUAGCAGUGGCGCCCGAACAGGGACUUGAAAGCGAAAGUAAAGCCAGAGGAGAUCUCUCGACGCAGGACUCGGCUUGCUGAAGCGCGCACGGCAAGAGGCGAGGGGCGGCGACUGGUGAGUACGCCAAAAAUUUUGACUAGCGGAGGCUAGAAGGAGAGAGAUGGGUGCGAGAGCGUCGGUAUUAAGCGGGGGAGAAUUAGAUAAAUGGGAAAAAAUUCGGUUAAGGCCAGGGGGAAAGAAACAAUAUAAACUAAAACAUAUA

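Randomly mutated transcripts starting with one, two or three G (1G, 2G, 3G), capped or uncapped, were folded for 30 min at 37 °C. High salt was 300 mM KCl and 5 mM MgCl2, low salt 40 mM KCl and 0.1 mM MgCl2; monomer and dimer were parted on a native gel. Mutation frequencies in the two bands give Kdimer.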

Scale: median log2 Kdimer over the changes at a position; positive = changes inhibit dimerization, negative = changes enhance it. One numbering serves 1G, 2G and 3G. A position is written with its base.

| position | domain | 3G uncapped high-salt | 3G uncapped low-salt |
|---|---|---|---|
| U107 | U5 | 0.02 | 1.13 |
| G108 | U5 | -0.02 | 0.01 |
| C109 | U5 | -0.21 | 1.45 |
| C110 | U5 | 0.49 | 1.35 |
| C111 | U5 | -0.10 | 1.51 |
| G112 | U5 | 0.03 | 1.13 |
| U113 | none | -0.07 | 0.68 |
| C114 | none | 0.01 | 0.73 |
| U115 | none | -0.02 | 0.65 |
| G116 | none | 0.40 | -0.48 |
| U117 | none | 0.00 | -0.17 |
| U118 | none | 0.08 | 0.08 |
| G119 | none | -0.10 | -0.52 |
| U120 | none | 0.06 | 0.97 |
| G121 | none | -0.11 | -0.36 |
| U122 | none | 0.13 | 0.81 |
| G123 | none | 0.11 | -0.14 |
| A124 | none | 0.14 | 0.71 |
| C125 | PAS | 0.10 | 0.67 |
| U126 | PAS | 0.28 | 0.89 |
| C127 | PAS | 0.33 | 0.87 |
| U128 | PAS | 0.29 | 0.85 |
| G129 | PAS | 0.39 | 1.03 |
| G130 | PAS | 0.40 | 0.85 |
| U131 | PAS | 0.29 | 0.78 |
| A132 | PBS | 0.02 | -0.12 |
| A133 | PBS | 0.15 | 0.20 |
| C134 | PBS | 0.14 | -0.14 |
| U135 | PBS | 0.19 | -0.08 |
| A136 | PBS | 0.16 | -0.17 |
| G137 | PBS | 0.19 | 0.39 |
| A138 | PBS | 0.02 | 0.48 |
| G139 | PBS | 0.15 | 0.51 |
| A140 | PBS | 0.20 | 0.35 |
| U141 | PBS | 0.14 | 0.53 |
| C142 | PBS | 0.07 | 0.23 |
| C143 | PBS | 0.01 | 0.16 |
| C144 | PBS | -0.04 | 0.06 |
| U145 | PBS | 0.01 | 0.09 |
| C146 | PBS | 0.04 | 0.27 |
| A147 | PBS | 0.07 | 0.09 |
| G148 | PBS | -0.09 | 0.21 |
| A149 | PBS | -0.01 | -0.31 |
| C150 | PBS | 0.20 | 0.54 |
| C151 | PBS | -0.01 | -0.07 |
| C152 | PBS | -0.04 | 0.02 |
| U153 | PBS | 0.00 | 0.10 |
| U154 | PBS | -0.04 | 0.01 |
| U155 | PBS | 0.03 | 0.05 |
| U156 | PBS | 0.15 | -0.02 |
| A157 | PBS | 0.12 | 0.01 |
| G158 | PBS | -0.16 | -0.20 |

The first 7 entries again:

{"position": "U107", "domain": "U5", "3G uncapped high-salt": 0.02, "3G uncapped low-salt": 1.13}
{"position": "G108", "domain": "U5", "3G uncapped high-salt": -0.02, "3G uncapped low-salt": 0.01}
{"position": "C109", "domain": "U5", "3G uncapped high-salt": -0.21, "3G uncapped low-salt": 1.45}
{"position": "C110", "domain": "U5", "3G uncapped high-salt": 0.49, "3G uncapped low-salt": 1.35}
{"position": "C111", "domain": "U5", "3G uncapped high-salt": -0.10, "3G uncapped low-salt": 1.51}
{"position": "G112", "domain": "U5", "3G uncapped high-salt": 0.03, "3G uncapped low-salt": 1.13}
{"position": "U113", "domain": "none", "3G uncapped high-salt": -0.07, "3G uncapped low-salt": 0.68}